Pooled drug test results. Numbers come from NIAID ChemDB, via PubChem.

All rows: tests in culture; species: Mycobacterium avium; endpoint: inhibition

Percent inhibition refers to the dose given; in toxicity tests it is the harm to the cells.

CO[C@@H]1[C@H](O)[C@@H](CO)O[C@H]1n1cc(C)c(=O)[nH]c1=O ; tested at: 50 µg/mL ; strain or isolate: ATCC 25291 ; value: 0%
CO[C@H]1/C=C/O[C@@]2(C)Oc3c(C)c(O)c4c(O)c(c5c(c4c3C2=O)NC2(CCN(CC(C)C)CC2)N=5)=NC(=O)/C(C)=C\C=C\[C@H](C)[C@H](O)[C@@H](C)[C@@H](O)[C@@H](C)[C@H](O)[C@@H]1C ; tested at: 0.4 µg/mL ; read by: colony count ; strain or isolate: 1581 ; value: >99%
Cc1cc2nc(C)c(C(=O)NCc3ccc(C4CCN(c5ccc(OC(F)(F)F)cc5)CC4)c(F)c3)n2cc1Cl ; tested at: 0.057 µM ; read by: fluorescence ; value: 85%
O=C1NC(=NCc2ccccc2)N/C1=C\c1ccc(Cl)cc1 ; tested at: 12.5 µg/mL ; value: 42%
O=c1[nH]c(=O)n([C@H]2C[C@H](F)[C@@H](CO)O2)cc1F ; tested at: 50 µg/mL ; strain or isolate: ATCC 25291 ; value: 0%
CCc1nc2ccc(Cl)cn2c1C(=O)NCc1ccc(C2CCN(c3ccc(OCC(C)C)cn3)CC2)c(F)c1.Cl ; tested at: 0.036 µM ; read by: fluorescence ; value: 85%
O=c1ccn([C@H]2CC[C@@H](CO)O2)c(=O)[nH]1 ; tested at: 50 µg/mL ; strain or isolate: ATCC 25291 ; value: 0%
O=C1NC(Nc2ccc(Cl)cc2)=N/C1=C\c1ccccc1Cl ; tested at: 12.5 µg/mL ; value: 71%
CCc1nc2cc(F)ccn2c1C(=O)NCc1ccc(N2CCC(c3ccc(OC(F)(F)F)cc3)CC2)c(F)c1.Cl ; tested at: 0.013 µM ; read by: fluorescence ; value: 85%
Cc1cn([C@H]2C[C@H](N)[C@@H](CO)O2)c(=O)[nH]c1=O ; tested at: 100 µg/mL ; read by: resazurin ; strain or isolate: ATCC 25291 ; value: 0%
CC[C@H]1OC(=O)[C@H](C)[C@@H](O[C@H]2C[C@@](C)(OC)[C@@H](O)[C@H](C)O2)[C@H](C)[C@@H](O[C@@H]2O[C@H](C)C[C@H](N(C)C)[C@H]2O)[C@](C)(OC)C[C@@H](C)C(=O)[C@H](C)[C@@H](O)[C@]1(C)O ; tested at: 6.25 µg/mL ; value: 98%
Cc1cn([C@H]2CC[C@@H](CO)O2)c(=O)[nH]c1=O ; tested at: 50 µg/mL ; strain or isolate: ATCC 25291 ; value: 0%
O=C1NC(Nc2ccc(Cl)cc2)=N/C1=C\c1ccc(Cl)cc1Cl ; tested at: 12.5 µg/mL ; value: 66%
[N-]=[N+]=N[C@H]1C[C@H](n2cc(F)c(=O)[nH]c2=O)O[C@@H]1CO ; tested at: 100 µg/mL ; read by: resazurin ; strain or isolate: ATCC 25291 ; value: 0%
Cc1ccn2c(C(=O)NCc3ccc(C4CCN(c5ccc(OC(F)(F)F)cn5)CC4)cc3F)c(C)nc2c1 ; tested at: 0.089 µM ; read by: fluorescence ; value: 85%
CO[C@H]1/C=C/O[C@@]2(C)Oc3c(C)c(O)c4c(O)c(c5c(c4c3C2=O)NC2(CC[N+]([O-])(CC(C)C)CC2)N=5)=NC(=O)/C(C)=C\C=C\[C@H](C)[C@H](O)[C@@H](C)[C@@H](O)[C@@H](C)[C@H](O)[C@@H]1C ; tested at: 0.4 µg/mL ; read by: colony count ; strain or isolate: 1581 ; value: 0%
CCc1cn([C@H]2C[C@H](I)[C@@H](CO)O2)c(=O)[nH]c1=O ; tested at: 100 µg/mL ; read by: resazurin ; strain or isolate: ATCC 25291 ; value: 0%
N#C/C(=C\c1ccc(Br)cc1)n1nnc2ccccc21 ; tested at: 12.5 µg/mL ; value: 30%
CO[C@H]1/C=C/O[C@@]2(C)Oc3c(C)c(O)c4c(c3C2O)C2=NC3(CC[N+]([O-])(CC(C)C)CC3)N(C(C)=O)C2=C(NC(=O)/C(C)=C\C=C\[C@H](C)[C@H](O)[C@@H](C)[C@@H](O)[C@@H](C)[C@H](OC(C)=O)[C@@H]1C)C4=O ; tested at: 0.4 µg/mL ; read by: colony count ; strain or isolate: 1581 ; value: 53%
CCCC[C@H]1CN(c2ccc(CNC(=O)c3c(CC)nc4cc(F)ccn34)cc2F)CCN1c1ccc(OC(F)(F)F)cc1.Cl ; tested at: 0.0044 µM ; read by: fluorescence ; value: 85%
O=c1[nH]c(=O)n([C@H]2C[C@H](O)[C@@H](CO)O2)cc1/C=C/Cl ; tested at: 50 µg/mL ; strain or isolate: ATCC 25291 ; value: 0%
CCc1nc2ccc(Cl)cn2c1C(=O)NCc1ccc(-n2cc3c(n2)CN(c2ccc(OC(F)(F)F)cc2)C3)c(F)c1.Cc1ccc(S(=O)(=O)O)cc1 ; tested at: 0.0046 µM ; read by: fluorescence ; value: 85%
O=c1[nH]c(=O)n([C@H]2CC[C@@H](CO)O2)cc1I ; tested at: 50 µg/mL ; strain or isolate: ATCC 25291 ; value: 0%
CO[C@H]1/C=C/O[C@@]2(C)Oc3c(C)c(O)c4c(O)c(c5c(c4c3C2O)=NC2(CCN(CC(C)C)CC2)N=5)NC(=O)/C(C)=C\C=C\[C@H](C)[C@H](O)[C@@H](C)[C@@H](O)[C@@H](C)[C@H](OC(C)=O)[C@@H]1C ; tested at: 0.4 µg/mL ; read by: colony count ; strain or isolate: 1581 ; value: >99%
O=c1[nH]c(=O)n([C@H]2O[C@@H](CO)[C@H](O)[C@@H]2O)cc1I ; tested at: 50 µg/mL ; strain or isolate: ATCC 25291 ; value: 0%
CCOC(=O)/C(N=Nc1ccc(C(=O)N/N=C/c2ccc([N+](=O)[O-])o2)cc1)=C(\C)O ; tested at: 12.5 µg/mL ; value: 16%
Cc1nc2ccc(Cl)cn2c1C(=O)NCc1ccc(N2CCN(c3ccc(OC(F)(F)F)cc3)[C@H](C)C2)c(F)c1.Cl ; tested at: 0.0069 µM ; read by: fluorescence ; value: 85%
O=c1[nH]c(=O)n([C@H]2C[C@H](O)[C@@H](CO)O2)cc1Br ; tested at: 50 µg/mL ; strain or isolate: ATCC 25291 ; value: 0%

The first 2 rows once more:

compound	tested at	read by	strain or isolate	value
CO[C@@H]1[C@H](O)[C@@H](CO)O[C@H]1n1cc(C)c(=O)[nH]c1=O	50 µg/mL		ATCC 25291	0%
CO[C@H]1/C=C/O[C@@]2(C)Oc3c(C)c(O)c4c(O)c(c5c(c4c3C2=O)NC2(CCN(CC(C)C)CC2)N=5)=NC(=O)/C(C)=C\C=C\[C@H](C)[C@H](O)[C@@H](C)[C@@H](O)[C@@H](C)[C@H](O)[C@@H]1C	0.4 µg/mL	colony count	1581	>99%

Conditions beyond the fields shown may differ between rows. Blank or dashed fields: not listed here.